The source of these data is article PMC10883919.

Data set [1] concerns the target P~TcrX (phosphorylated TcrX) (Mycobacterium tuberculosis H37Rv) (UniProt O69730). As to the kind of experiment: EMSA. To be noted: recombinant protein; residues 1-234; probe letters rebuilt from the primers and the genome.
Data set [2] deals with T1, TcrX (Mycobacterium tuberculosis H37Rv) (UniProt O69730).
T1 sequence (looked up): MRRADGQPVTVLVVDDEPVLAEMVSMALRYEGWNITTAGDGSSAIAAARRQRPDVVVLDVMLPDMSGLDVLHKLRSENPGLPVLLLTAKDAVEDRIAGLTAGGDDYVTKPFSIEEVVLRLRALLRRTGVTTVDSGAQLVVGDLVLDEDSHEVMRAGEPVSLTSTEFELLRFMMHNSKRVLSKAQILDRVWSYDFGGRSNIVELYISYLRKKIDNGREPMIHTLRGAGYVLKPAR
As to the kind of experiment: EMSA. To be noted: unphosphorylated, weaker than P~TcrX; recombinant protein; residues 1-234; probe letters rebuilt from the primers and the genome.

Construct, isoform or probe ends are uncertain for at least one entry. For some assays here: Tags and fusion partners may be left off the protein sequences shown.

Take “CTTTTGAATATCGCTCGGCCGGCAACCACCGTAAAGGGTTGCGGTTACAAACGTGCCATGAACTGGTGCAGCCCGGTGCCTTGGGTGGACACCGGGCTGCTGGTTGTCGGTTACGGAGCGGGTGTCGCGGGAGGACTGACGGACGACGGCACCTGGCCGGGCCCGCCCGGGCCTGGGCCGGGACGCACTGCCGCGGGCCCACCGTGCGGACTGCCCGGTCGCAGCATCATCGCCGGGTGCTGGTGGTGTTGCCGGTGGTGGAAGCCGCCGTGACCGGCATGCTTGCCGAGGATATAGCCGGTGAAGAAGATGACCGCCACGATGAACACGGTTC (double strand) [PRv3705A]”: the binding result in data set [1] and in data set [2] was “binds” in each case.
